Results deposited as PubChem BioAssay AID1259414 (Drosophila RNAi Screening Center, 2018)
Assay: 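Genome-wide screen for host control of endosymbiont load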 (primary screen). Cell system: Drosophila JW18 cells infected with Wolbachia. Knock-down reagent: long dsRNA against Drosophila genes, 0.25 µg dsRNA per well of a 384-well plate. Duration: 5 days. Treatment: cells persistently infected with Wolbachia before knock-down; no added drug. Measured: 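Automated imaging of bacterial rRNA staining divided by host cell count, reported as plate-normalised robust z-score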. Direction: Wolbachia per cell robust z: higher = more Wolbachia per host cell than the plate typical. Hit rule: 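Hit when robust z is 1.5 or more, or -1.5 or less, in at least two of three replicates; excludes dsRNAs with several or no targets, genes not expressed in JW18 and well A1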.
The screen tested about 24,000 reagents; this is a random part of those with a known target gene and a result. Of all reagents, about 1,210 (5%) got an active call. 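Inactive calls also include excluded dsRNAs with several or no targets, genes unexpressed in JW18, and well A1, regardless of score.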 A number with no mark means an inactive call. Reagents against one gene are numbered here. A plus sign joins genes that one reagent is predicted to hit. No sequences are given here.

| gene knocked down | dsRNA no. | Wolbachia per cell robust z, rep 1 | Wolbachia per cell robust z, rep 2 | Wolbachia per cell robust z, rep 3 |
| --- | --- | --- | --- | --- |
| Hpf1 (GeneID 40718) | 1 | -2.22 | -1.05 | -0.465 |
| ppk30 (GeneID 43487) | 1 | -1.37 | 0.697 | 0.0674 |
| EAChm (GeneID 39637) | 1 | 0.754 | 0.692 | 0.636 |
| CG9021 (GeneID 33818) | 1 | 0.194 | -0.0259 | -0.371 |
| TwdlZ (GeneID 318092) | 1 | -1.29 | -0.946 | -0.0652 |
| CG12020 (GeneID 38233) | 1 | 0.268 | -0.687 | -4.5 |
| CG12020 (GeneID 38233) | 2 | 0.917 | 1.25 | -0.496 |
| emei (GeneID 39250) | 1 | 0.201 | -0.701 | 0.778 |
| emei (GeneID 39250) | 2 | -0.128 | -0.17 | 0.323 |
| CG32388 + CG43439 | 1 | 1.09 | 0.376 | 1.85 |
| CG42571 (GeneID 8674113) | 1 | 0.468 | -1.79 | 0.499 |
| Spred (GeneID 36643) | 1 | -0.355 | -5.43 | -1.33 |
| Spred (GeneID 36643) | 2 | -5.25 | -6.94 | -5.43 |
| CG14960 (GeneID 38403) | 1 | -1.1 | -0.159 | 0.117 |
| mthl11 (GeneID 117467) | 1 | 0.861 | 0.522 | 1.19 |
| mthl11 (GeneID 117467) | 2 | 0.938 | 1.24 | -0.0938 |
| CG42489 (GeneID 8674035) | 1 | 0.674 | -2.24 | -0.328 |
| CG33995 + CG44001 + CG44000 | 1 | 0.801 | 0.553 | 0.612 |
| Calr (GeneID 41166) | 1 | -0.165 | 0.234 | 0.921 |
| Calr (GeneID 41166) | 2 | 0.705 | 1.17 | 0.227 |
| CG9121 (GeneID 33732) | 1 | 0.209 | -0.296 | 0.293 |
| hpo (GeneID 37247) | 1 | 0.873 | 0.471 | -0.325 |
| CG12519 + CG32213 + 825-Oak + 1 more | 1 | -1.56 | -1.72 | -0.894 |
| CG33511 (GeneID 3346223) | 1 | -0.124 | -0.968 | 0.42 |
| CG42564 (GeneID 40788) | 1 | 0.248 | 0.842 | 0.323 |
| CG42564 (GeneID 40788) | 2 | 0.619 | 0.0533 | 0.134 |
| alt (GeneID 42127) | 1 | 0.347 (active) | -3.42 | -5.93 |
| alt (GeneID 42127) | 2 | -0.334 | 0.0563 | 0.149 |

2 entries from above, ordered by “Wolbachia per cell robust z, rep 2”, descending.
| gene knocked down | dsRNA no. | Wolbachia per cell robust z, rep 1 | Wolbachia per cell robust z, rep 2 | Wolbachia per cell robust z, rep 3 |
| --- | --- | --- | --- | --- |
| Calr (GeneID 41166) | 2 | 0.705 | 1.17 | 0.227 |
| Calr (GeneID 41166) | 1 | -0.165 | 0.234 | 0.921 |
